## HIV-1 NL4-3 point mutations in RT: replication capacity

Values reported by Al-Mawsawi et al. 2014 (doi:10.1186/s12977-014-0124-6).

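Random point mutant libraries of HIV-1 NL4-3, one for each of seven fragments, were passaged in CEM T lymphocytes. The RC index is the frequency of a change after passage round 2 divided by its frequency in the plasmid library.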

Protein: RT of HIV-1 NL4-3, numbered from its first residue.
Effects on overlapping genes or RNA elements are not listed.

A higher RC index is a better tolerated change; approximate classes are lethal up to 0.1, attenuated to 0.2, tolerated above.
Substitutions are written as wild-type residue, site number, new residue.
Input reads are the counts in the plasmid library.
Nucleotide positions follow pNL4-3.
Clones carried about five changes per kilobase, which can drag down the index of neutral changes.
The authors read an index above 1 as above wild type (1.9% of all changes in the genome).

I434K (base T3850A, input reads 271) gave 0.0539.
E53G (base A2707G, input reads 470) gave 0.0697.
H198L (base A3142T, input reads 445) gave 0.0422.
N363Y (base A3636T, input reads 255) gave 0.0456.
V261M (base G3330A, input reads 265) gave 0.150.
Y339F (base A3565T, input reads 210) gave 0.0369.
W337L (base G3559T, input reads 250) gave 0.0930.
G273V (base G3367T, input reads 258) gave 0.116.
E378G (base A3682G, input reads 240) gave 0.0885.
P59L (base C2725T, input reads 138) gave 0.247.
C162G (base T3033G, input reads 219) gave 0.0394.
E478D (base G3983T, input reads 88) gave 0.0864.
Y144N (base T2979A, input reads 305) gave 0.0452.
Q334H (base A3551C, input reads 45) gave 0.172.
K32N (base A2645T, input reads 263) gave 0.0486.
T216S (base A3195T, input reads 399) gave 0.0424.
T128S (base A2931T, input reads 191) gave 0.0218.
L391I (base T3720A, input reads 516) gave 0.0874.
W406C (base G3767C, input reads 38) gave 0.279.
I195L (base A3132T, input reads 296) gave 0.0635.
G456E (base G3916A, input reads 132) gave 0.401.
K323T (base A3517C, input reads 43) gave 0.0451.
K46R (base A2686G, input reads 377) gave 0.0409.
W153C (base G3008T, input reads 241) gave 0.0429.
M41V (base A2670G, input reads 371) gave 0.0632.
L210V (base T3177G, input reads 126) gave 0.0597.
L551M (base T4200A, input reads 450) gave 0.0619.
T477I (base C3979T, input reads 148) gave 0.282.
S105P (base T2862C, input reads 166) gave 0.0251.
T39A (base A2664G, input reads 228) gave 0.178.
K30I (base A2638T, input reads 295) gave 0.130.
A455T (base G3912A, input reads 292) gave 0.0875.
T477N (base C3979A, input reads 124) gave 0.107.
E6K (base G2565A, input reads 353) gave 0.527.
A538S (base G4161T, input reads 303) gave 0.0541.
Q394H (base A3731C, input reads 67) gave 0.198.
N54S (base A2710G, input reads 407) gave 0.109.
L560P (base T4228C, input reads 237) gave 0.181.
S191Y (base C3121A, input reads 135) gave 0.139.